Compound potency records, mixed from different reports. Data source: NIAID ChemDB in PubChem.

Common to all: toxicity to cultured cells; cells: TZM-bl; measure: CC50

Neighbouring rows are from separate reports. Blank or dashed fields: not listed here. CCn is the concentration with n% toxicity to the cells.

SMILES,read by,value
O=C(N[C@@H](Cc1ccc(N(CC2CCCCC2)C(=O)c2ccno2)cc1)C(=O)N1CCCC1C(=O)O)OCC1c2ccccc2-c2ccccc21,XTT,>58 µM
Clc1ccc2nc(/C=C/c3ccc(N4CCCCC4)cc3)cc(Cl)c2c1,MTT,32.61 µM
O=C1NC(=NCc2ccc(Cl)c(F)c2)S/C1=C\c1ccc(-c2ccc(C(=O)O)c(O)c2)o1,XTT,>50 µM
Cc1cc(C)c(Nc2ccnc(Nc3ccc(C#N)cc3)n2)c(C)c1,WST / absorbance,2.524 µM
NCC(NC(=O)c1ccc(-c2ccc(C(F)(F)F)cc2)[nH]1)c1ncc(COCC(O)CO)s1,MTS,61.9 µM
O=C(/C=C/c1ccc(O)c(O)c1)c1ccc(NC(=O)c2ccccc2)cc1,-,50.2 µM
C[C@@H]1O[C@H]2O[C@H]3[C@@H](C)OC(c4ccc5c(c4O)C(=O)c4ccc(C[C@@](C)(O)CC(=O)O)c(O)c4C5=O)C[C@H]3O[C@H]2CC1=O,absorbance,47.6 µM
CC(C)(C)c1cc(N2C(=O)CSC2c2c(Cl)cccc2Cl)no1,MTT,48.5 µg/mL
COc1ccc(/C=C/c2cc(Cl)c3cc(Cl)ccc3n2)c(OC)c1,MTT,24.98 µM
Fc1ccc(N=Cc2cc3ccccc3nc2Nc2ccc(F)cc2)cc1,MTT,92.13 µM
Clc1ccc2nc(/C=C/c3ccc(N4CCCC4)cc3)cc(Cl)c2c1,MTT,51.45 µM
C[Si](C)(CCCN(CCS(=O)(=O)O)CCS(=O)(=O)O)CCC[Si](C)(CCC[Si](C)(C)CCCN(CCS(=O)(=O)O)CCS(=O)(=O)O)CCC[Si](CCC[Si](C)(CCC[Si](C)(C)CCCN(CCS(=O)(=O)O)CCS(=O)(=O)O)CCC[Si](C)(C)CCCN(CCS(=O)(=O)O)CCS(=O)(=O)O)(CCC[Si](C)(CCC[Si](C)(C)CCCN(CCS(=O)(=O)O)CCS(=O)(=O)O)CCC[Si](C)(C)CCCN(CCS(=O)(=O)O)CCS(=O)(=O)O)CCC[Si](C)(CCC[Si](C)(C)CCCN(CCS(=O)(=O)O)CCS(=O)(=O)O)CCC[Si](C)(C)CCCN(CCS(=O)(=O)O)CCS(=O)(=O)O,MTT,>100 µM
COc1cc(Br)ccc1/C=C/c1cc(Cl)c2cc(Cl)ccc2n1,MTT,20.29 µM
C=CC(=O)N(CC1CCCCC1)c1ccc(C[C@H](NC(=O)OCC2c3ccccc3-c3ccccc32)C(=O)N2CCCC2C(=O)O)cc1,XTT,50 µM
Cc1cc(/C=C/C#N)cc(C)c1Oc1cc(Nc2ccc(C#N)cc2)c(N)cc1S(N)(=O)=O,XTT,>21.8 µM
CCN(CC)C(=O)Oc1ccc2cccnc2c1-c1cccc2cccnc12,MTT,>200 µM
O=C1NC(=NCCc2ccccc2)S/C1=C\c1ccc(-c2ccc(C(=O)O)c(O)c2)o1,XTT,>50 µM
NC[C@H](NC(=O)c1ccc(-c2ccc(Cl)cn2)[nH]1)c1csc(CO)n1,MTS,>106 µM
CCC(C)SSc1ncc[nH]1,XTT,40.4 µM
Cc1cc(/C=C/C#N)cc(C)c1Nc1nc(Nc2ccc(C#N)cc2)nc(N2CCCCC2)n1,WST,>100 µM
CCN[C@@H]1C[C@H](N)[C@@H](O[C@H]2OC(CN)=CC[C@H]2N)[C@H](O)[C@H]1O[C@H]1OC[C@](C)(O)[C@H](NC)[C@H]1O,-,23.1 µM
Cc1cc(/C=C/C#N)cc(C)c1Oc1nc(Nc2ccc(C#N)cc2)nc(N2CCCCC2)n1,WST,>100 µM
CCOC(=O)c1cccc(Nc2nc(-c3cccnc3)nc3ccccc23)c1,MTT,15 µM
COc1cccc2ccc(-c3nnc(-c4ccc(C)cc4)o3)nc12,MTT,75.22 µM
COc1cc(/C=C/c2cc(Cl)c3cc(Cl)ccc3n2)cc(OC)c1,MTT,49.14 µM
Cc1cc(/C=C/C#N)cc(C)c1Oc1ccc([N+](=O)[O-])c(Nc2ccc(C#N)cc2)n1,XTT,48.66 µM
C=CCCC(=O)N(CC1CCCCC1)c1ccc(C[C@H](NC(=O)OCC2c3ccccc3-c3ccccc32)C(=O)O)cc1,XTT,>69 µM
Cc1cn(C2CC(n3nnc(C4CC4)c3C3(C(F)(F)F)OC(=O)Nc4ccc(Cl)cc43)C(CO)O2)c(=O)[nH]c1=O,MTS,63.83 µg/mL
CC(C)C[C@H](NC(=O)c1ccc(NC(=O)[C@H](Cc2c[nH]c3ccccc23)NC(=O)CCC(=O)NCCOCNC(=O)CCC(=O)N[C@@H](Cc2c[nH]c3ccccc23)C(=O)Nc2ccc(C(=O)N[C@@H](CC(C)C)C(=O)O)cc2OCCc2c[nH]c3ccccc23)c(OCCc2c[nH]c3ccccc23)c1)C(=O)O,absorbance,>50 µM
Cc1nc(C(CN)NC(=O)c2ncc(-c3ccc(Cl)cc3)[nH]2)sc1CO,XTT / absorbance,>51 µM
CC(C)(C)c1cc(N2C(=O)CSC2c2c(F)cccc2Cl)no1,MTT,40.7 µg/mL
COc1ccc(N(C)C(=O)[C@H](Cc2ccccc2)NC(=O)c2cccc(-c3cn(C4CC(n5cc(C)c(=O)[nH]c5=O)OC4CO)nn3)c2)cc1,MTT,>29.42 µM
Cc1cc(C)nc(N2C(=O)CSC2c2c(Br)cncc2Br)c1,MTT,49.8 µg/mL
Cc1nc(C(CN(C)C)NC(=O)c2ccc(-c3ccc(Cl)cc3)[nH]2)sc1CO,XTT / absorbance,>40 µM
Cc1ccc(C(=O)N(CC2CCCCC2)c2ccc(C[C@H](NC(=O)OCC3c4ccccc4-c4ccccc43)C(=O)N3CCCC3C(=O)O)cc2)o1,XTT,>57 µM
Cc1cc(/C=C/C#N)cc(C)c1Nc1nc(Nc2ccc(C#N)cc2)nc(NC(C)C)n1,WST,24.69 µM
C=C(C)C(=O)N(CC1CCCCC1)c1ccc(C[C@H](NC(=O)OCC2c3ccccc3-c3ccccc32)C(=O)N2CCCC2C(=O)O)cc1,XTT,60 µM
CCCCCCCCCCCCCCCCOC1O[C@@H](CO)[C@H](O)[C@H](O)[C@@H]1O,resazurin,>400 µM
CC(C)c1c(Cc2ccccc2)n(COCc2ccccc2)c(=O)[nH]c1=O,XTT,65.8 µM
CC(C)(C)OC(=O)c1cccc(Cn2ccc3ccc(-c4ccc5ccn(Cc6cccc(C(=O)O)c6)c5c4)cc32)c1,MTT,>20 µM
Oc1cc(/C=C/c2cc(O)c(O)c(O)c2)cc(O)c1O,MTT,20.1 µM
Cc1cc(C#N)cc(C)c1Oc1nc(Nc2ccc(C#N)cc2)nc(N)c1Br,WST,4.77 µM
COc1cccc2ccc(-c3nnc(-c4ccccc4)o3)nc12,MTT,237 µM
O=C(N[C@@H](Cc1ccc(N(CC2CCCCC2)C(=O)C(F)(F)F)cc1)C(=O)O)OCC1c2ccccc2-c2ccccc21,XTT,>67 µM
N=C1Sc2ccccc2C2=NCCCN12,-,>300 µM
O=[N+]([O-])c1ccc(Nc2cc(-c3cccnc3)nc3ccccc23)c(F)c1,MTT,20 µM
COc1cc(C[C@@H]2C(=O)N[C@@H](C(C)C)C(=O)O[C@H](c3ccccc3)[C@H](C)/C=C/C=C(\C)C(OC)CCC/C=C(\C)C(=O)C(C)C(=O)N2C)ccc1O,-,0.14 µM
Cc1cc(C)c(Nc2nc(Cl)nc(Nc3ccc(C#N)nc3)n2)c(C)c1,MTT,50 µg/mL
O=C1NC(=NCc2ccc(Cl)c(Cl)c2)S/C1=C\c1ccc(-c2ccc(C(=O)O)c(O)c2)o1,XTT,>50 µM
Cc1cc(C)c(Nc2ccnc(Nc3ccc(C#N)cc3)n2)c(C)c1,WST,2.88 µM
Cc1nc(C(CN(C)C)NC(=O)c2ccc(-c3ccc(Cl)c(F)c3)[nH]2)sc1CO,XTT / absorbance,>40 µM
COc1cccc2ccc(/C=C/C(=O)Nc3ccccc3F)nc12,MTT,53.61 µM
Clc1ccc2nc(/C=C/c3ccc4ccccc4c3)cc(Cl)c2c1,MTT,22.27 µM
NC[C@@H](NC(=O)c1ccc(-c2ccc(Cl)cn2)[nH]1)c1ncc(CO)s1,MTS,>132 µM
Clc1cc(/C=C/c2cccc3ccccc23)nc2ccccc12,MTT,67.77 µM
CC(C)=CCc1cc(C(O)C2NC(=O)CNC(=O)C(Cc3c[nH]c4ccccc34)NC(=O)C3CCCN3C(=O)CNC(=O)C(C(C)C)CC(=O)CNC2=O)ccc1O,absorbance,>100 µg/mL
NC[C@@H](NC(=O)c1ccc(-c2ccc(C(F)(F)F)cn2)[nH]1)c1ncc(CO)s1,MTS,>73 µM
CC(=O)N1CCCCC1C(NC(=O)C(=O)Nc1ccc(Cl)cc1)c1nc(C)c(CCO)s1,XTT,>84 µM
COc1cc(/C=C/c2cc(Cl)c3ccccc3n2)cc(OC)c1OC,MTT,41.6 µM
O=C(N[C@@H](Cc1ccc(N(CC2CCCCC2)C(=O)CC2CCCCC2)cc1)C(=O)O)OCC1c2ccccc2-c2ccccc21,XTT,26 µM
Cc1cc(N2C(=O)CSC2c2c(F)cccc2Cl)nc(C)c1Br,MTT,40.2 µg/mL

For reference, 9 entries again:

CC(C)=CCc1cc(C(O)C2NC(=O)CNC(=O)C(Cc3c[nH]c4ccccc34)NC(=O)C3CCCN3C(=O)CNC(=O)C(C(C)C)CC(=O)CNC2=O)ccc1O ; read by: absorbance ; value: >100 µg/mL
NCC(NC(=O)c1ccc(-c2ccc(C(F)(F)F)cc2)[nH]1)c1ncc(COCC(O)CO)s1 ; read by: MTS ; value: 61.9 µM
C=CC(=O)N(CC1CCCCC1)c1ccc(C[C@H](NC(=O)OCC2c3ccccc3-c3ccccc32)C(=O)N2CCCC2C(=O)O)cc1 ; read by: XTT ; value: 50 µM
COc1cc(Br)ccc1/C=C/c1cc(Cl)c2cc(Cl)ccc2n1 ; read by: MTT ; value: 20.29 µM
COc1ccc(/C=C/c2cc(Cl)c3cc(Cl)ccc3n2)c(OC)c1 ; read by: MTT ; value: 24.98 µM
CC(C)(C)c1cc(N2C(=O)CSC2c2c(Cl)cccc2Cl)no1 ; read by: MTT ; value: 48.5 µg/mL
O=C(N[C@@H](Cc1ccc(N(CC2CCCCC2)C(=O)C(F)(F)F)cc1)C(=O)O)OCC1c2ccccc2-c2ccccc21 ; read by: XTT ; value: >67 µM
C=C(C)C(=O)N(CC1CCCCC1)c1ccc(C[C@H](NC(=O)OCC2c3ccccc3-c3ccccc32)C(=O)N2CCCC2C(=O)O)cc1 ; read by: XTT ; value: 60 µM
Clc1ccc2nc(/C=C/c3ccc(N4CCCCC4)cc3)cc(Cl)c2c1 ; read by: MTT ; value: 32.61 µM